Anti-infective test results gathered from many reports (values: NIAID ChemDB through PubChem).

Common to all: growth or infection tests; agent: HIV-1; endpoint: EC50

Blank or dashed fields: not listed here. ECn: concentration that inhibits the pathogen or its effect by n%. Conditions beyond the fields shown may differ between rows.

| compound | strain | changes | cells | method | setting | value |
|---|---|---|---|---|---|---|
| COc1ncc(OC)c2c(C(=O)C(=O)N3CC/C(=C(\C#N)c4ccccc4)CC3C)c[nH]c12 | - | - | HeLa | luciferase | - | <1 µM |
| COc1ccc(N(C)C(=O)[C@H](Cc2ccccc2)NC(=O)c2nc[nH]c2C(=O)N[C@@H](Cc2ccccc2)C(=O)N(C)c2ccc(OC)cc2)cc1 | NL4-3 | - | MT-2 | luciferase | - | 3.34 µM |
| Cc1cc2cn[nH]c2cc1NC(=O)COc1ccc(Cl)cc1C(=O)c1cccc(C#N)c1 | WTRVA | - | HeLa + HELA CD4+ | β-galactosidase | - | <0.01 µM |
| Nc1c(C(=O)NCc2ccc(F)cc2F)c(=O)n(O)c2ncc(CCCCCCCCO)cc12 | - | G140S/Q148H | HOS | luciferase / single cycle | pseudotyped | 0.007 µM |
| Cc1cc(OCCCS(N)(=O)=O)ccc1NC(=O)COc1ccc(Cl)cc1C(=O)c1cc(F)cc(C(F)(F)F)c1 | HXB2 | RT-K103N L100I | HeLa + HELA CD4+ | β-galactosidase | - | <0.01 µM |
| N#CC(=C1CCN(C(=O)C(=O)c2c[nH]c3c(-c4cnccn4)ccnc23)CC1)c1ccccc1 | - | - | HeLa | luciferase | - | <1 µM |
| Cc1cc(N(C)C(=O)[C@H](Cc2ccccc2)NC(=O)NS(=O)(=O)N[C@@H](Cc2ccccc2)C(=O)N(C)c2ccc(C#N)c(C)c2)ccc1C#N | NL4-3 | - | MT-2 | luciferase | - | 2.74 µM |
| C/C=C/COC1(C(F)(F)F)OC(=O)Nc2ccc(F)cc21 | - | - | - | - | - | <0.00885 µM |
| Cc1cc(C#N)cc(C(=O)c2cc(Cl)ccc2OCC(=O)Nc2ccc(OCCCN3CC=CC3)cc2C)c1 | HXB2 | RT-V106A Y181C | HeLa + HELA CD4+ | β-galactosidase | - | <0.01 µM |
| COc1ncc(OC)c2c(C(=O)C(=O)N3CCC(=C(Cl)c4ccccc4)CC3)c[nH]c12 | - | - | HeLa | luciferase | - | <1 µM |
| COc1ccc(N(C)C(=O)[C@H](Cc2ccccc2)NC(=O)Cn2c(=O)n(CC(=O)N[C@@H](Cc3ccccc3)C(=O)N(C)c3ccc(OC)cc3)c3cc(N)ccc32)cc1 | NL4-3 | - | MT-2 | luciferase | - | 0.34 µM |
| Cc1cc(S(N)(=O)=O)ccc1NC(=O)COc1ccc(Cl)cc1C(=O)c1cc(F)cc(F)c1 | HXB2 | RT-V108I | HeLa + HELA CD4+ | β-galactosidase | - | <0.01 µM |
| COc1cc(-c2ccc(N=Nc3ccc4c(S(=O)(=O)O)cc(S(=O)(=O)O)c(N)c4c3O)c(OC)c2)ccc1N=Nc1ccc2c(S(=O)(=O)O)cc(S(=O)(=O)O)c(N)c2c1O | KELL | - | CEM + CEM-SS | cytopathic effect / XTT | - | 0.8 µM |
| N#CC1=CC2Nc3ccccc3C2N(c2ccc([N+](=O)[O-])cc2)C1=O | G-3 | - | HeLa | GFP / fluorescence | - | 0.32 µM |
| Cc1cc(S(N)(=O)=O)ccc1NC(=O)COc1ccc(Cl)cc1C(=O)c1cc(Cl)cc(C#N)c1 | HXB2 | RT-P225H | HeLa + HELA CD4+ | β-galactosidase | - | <0.01 µM |
| C=CCOC1(C(F)(F)F)OC(=O)Nc2ccc(F)c(F)c21 | - | RT-K103N | - | - | - | <1.617 µM |
| C=C(C)[C@@H]1CC[C@]2(C(=O)NCCCCCCCC(=O)N[C@@H](CC(C)C)[C@@H](O)CC(=O)O)CC[C@]3(C)[C@H](CC[C@@H]4[C@@]5(C)CC[C@H](O)C(C)(C)[C@@H]5CC[C@]43C)[C@@H]12 | LAI | GP41-I69V | HeLa P4 + HeLa | syncytia | - | <10 µM |
| COc1cnc(-n2ccc(C)n2)c2[nH]cc(C(=O)C(=O)N3CCC(=C(c4ccccc4)c4cccc(F)c4)CC3)c12 | - | - | HeLa | luciferase | - | <1 µM |
| Cc1cc(C#N)cc(C(=O)c2cc(Cl)ccc2OCC(=O)Nc2ccc(S(N)(=O)=O)cc2C)c1 | HXB2 | RT-V106I | HeLa + HELA CD4+ | β-galactosidase | - | <0.01 µM |
| C[C@]1(CO)O[C@@H](n2cnc3c(N)ncnc32)C[C@@H]1O | - | SSGR+T215Y (delta)Env | HOS | luciferase | - | 0.025 µM |
| CCCOC1(C(F)(F)F)OC(=O)Nc2ccc(Cl)cc21 | - | - | - | - | - | <0.00581 µM |
| CN(C(=O)[C@H](Cc1ccccc1)NC(=O)NS(=O)(=O)N[C@@H](Cc1ccccc1)C(=O)N(C)c1ccc2c(c1)OCO2)c1ccc2c(c1)OCO2 | NL4-3 | - | MT-2 | luciferase | - | 0.17 µM |
| O=C1Nc2ccc(Cl)cc2C(OCCC2CC2)(C(F)(F)F)O1 | - | RT-K103N | - | - | - | <0.286 µM |
| Cc1cc(C#N)cc(C(=O)c2cc(Cl)ccc2OCC(=O)Nc2ccc(S(N)(=O)=O)nc2C)c1 | HXB2 | RT-V108I Y181C | HeLa + HELA CD4+ | β-galactosidase | - | <0.01 µM |
| CC1CC(C)CN(S(=O)(=O)c2ccccc2[N+](=O)[O-])C1 | 7295-1 | - | HeLa | GFP / fluorescence | - | 1 µM |
| COc1ncc(OC)c2c(C(=O)C(=O)N3CCC(=C(C#N)c4cncs4)CC3)c[nH]c12 | - | - | HeLa | luciferase | - | <1 µM |
| Cc1cc(C)cc(Cc2c(I)c(=O)[nH]c(=O)n2COCc2ccccc2)c1 | A17 | K103N | TZM-bl | p24 / ELISA | - | 0.035 µM |
| COc1ncc(OC)c2c(C(=O)C(=O)N3CCC(=C(C(N)=O)c4ccccc4)CC3)c[nH]c12 | - | - | HeLa | luciferase | - | <1 µM |
| COc1ccc(N(C)C(=O)[C@H](Cc2ccccc2)NC(=O)c2cc(C(=O)N[C@@H](Cc3ccccc3)C(=O)N(C)c3ccc(OC)cc3)[nH]n2)cc1 | NL4-3 | - | MT-2 | luciferase | - | 1.58 µM |